Source: PubChem BioAssay AID624099 (ICCB-Longwood, 2012)
This is an unselected part of about 21,000 reagents. Over the whole deposit, 497 (2.4%) were called active. 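Higher z means weaker E2 silencing; only reporter increases were scored, and knock-downs that hurt cell survival may mask genuine repressor factors.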 Reagents against one gene are numbered here. No sequences are given here.

Screen: 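Human genes that papillomavirus E2 requires to repress the HPV18 LCR promoter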 (primary screen)
Cells: human C33A cervical carcinoma cells (HPV-negative) stably expressing BPV1 E2 and an HPV18 LCR luciferase reporter
Reagents: siRNA pool against human genes, 40 nM
Duration: 72 h
Measurement: 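HPV18 LCR reporter light per well, converted to plate-wise z-scores that exclude control wells, and averaged over triplicate plates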
Reading the numbers: mean z-score and z-score: higher = stronger reporter signal, weaker E2 silencing
Rule for the call: 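Mean z ≥ 2 together with z ≥ 2 in two or more of the three replicates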

gene	pool no.	mean z-score	z-score, replicate A	z-score, replicate B	z-score, replicate C	outcome
PNMA3 (GeneID 29944)	1	0.78	0.58	0.58	1.18	inactive
C1orf52 (GeneID 148423)	1	0.44	0.4	0.71	0.19	inactive
RELL2 (GeneID 285613)	1	0.14	0.2	0.18	0.05	inactive
JPT1 (GeneID 51155)	1	0.23	-0.41	0.51	0.6	inactive
TXNIP (GeneID 10628)	1	-1.58	-1.25	-1.72	-1.77	inactive
LOC152122 (retired record) (GeneID 152122)	1	0.42	0.52	0.49	0.24	inactive
TP53 (GeneID 7157)	1	-0.11	-0.12	-0.07	-0.15	inactive
PITPNM1 (GeneID 9600)	1	-1.27	-1.27	-1.32	-1.24	inactive
ADARB2 (GeneID 105)	1	0.41	0.35	0.36	0.52	inactive
ALDH3B1 (GeneID 221)	1	-1.58	-1.46	-1.43	-1.84	inactive
NUCKS1 (GeneID 64710)	1	0.9	1.12	0.97	0.62	inactive
STXBP3 (GeneID 6814)	1	-0.66	-0.47	-0.79	-0.72	inactive
KLHL6 (GeneID 89857)	1	-0.77	-0.88	-1.08	-0.35	inactive
BRAP (GeneID 8315)	1	1.61	1.68	1.73	1.42	inactive
CARD9 (GeneID 64170)	1	1.22	0.6	1.85	1.22	inactive
SPP1 (GeneID 6696)	1	0.04	-0.08	0.18	0.02	inactive
LOC388477 (retired record) (GeneID 388477)	1	-1.03	-1.07	-0.91	-1.11	inactive
ZNF234 (GeneID 10780)	1	-0.06	0.07	-0.29	0.03	inactive
TSEN2 (GeneID 80746)	1	0.09	-0.16	0.16	0.26	inactive
GADD45A (GeneID 1647)	1	2.38	2.39	2.34	2.4	active
CCL20 (GeneID 6364)	1	0.72	0.68	0.7	0.76	inactive
ANXA4 (GeneID 307)	1	-0.94	-1.25	-0.75	-0.83	inactive
MSANTD3 (GeneID 91283)	1	0.94	1.05	1.1	0.66	inactive
OCIAD1 (GeneID 54940)	1	1.09	1.17	1.06	1.03	inactive
ATP10A (GeneID 57194)	1	-0.74	-0.93	-0.78	-0.52	inactive
PMCHL1 (GeneID 5369)	1	0.87	1.06	0.89	0.67	inactive
ADAP2 (GeneID 55803)	1	-0.69	-0.7	-0.87	-0.5	inactive
MRPS11 (GeneID 64963)	1	0.47	0.57	0.29	0.54	inactive
RAI2 (GeneID 10742)	1	1.25	1.18	1.53	1.04	inactive
ZNF713 (GeneID 349075)	1	0.32	0.21	0.39	0.34	inactive
MEGF9 (GeneID 1955)	1	1.23	1.36	0.99	1.35	inactive
KRT75 (GeneID 9119)	1	0.19	0.14	0.46	-0.05	inactive
NDUFB2 (GeneID 4708)	1	-0.56	-0.47	-0.46	-0.75	inactive
TSPO2 (GeneID 222642)	1	-0.09	-0.17	-0.01	-0.45	inactive
CFDP1 (GeneID 10428)	1	-1.19	-1.1	-1.31	-1.16	inactive
QPRT (GeneID 23475)	1	-1.15	-1.24	-1.31	-0.91	inactive
CLDN15 (GeneID 24146)	1	0.85	0.83	0.9	0.83	inactive
LOC389081 (retired record) (GeneID 389081)	1	0.44	0.63	0.25	0.45	inactive
OR1L1 (GeneID 26737)	1	0.3	0.61	-0.22	0.51	inactive
ENKUR (GeneID 219670)	1	-0.43	-0.67	-0.37	-0.26	inactive
ARHGEF39 (GeneID 84904)	1	-0.68	-0.88	-0.79	-0.36	inactive
DCPS (GeneID 28960)	1	-0.3	0.06	-0.35	-0.63	inactive
AHSA1 (GeneID 10598)	1	-1.43	-1.83	-1.35	-1.12	inactive
PPFIA1 (GeneID 8500)	1	-1.18	-1.2	-1.18	-1.15	inactive
OTX2 (GeneID 5015)	1	-0.13	-0.22	-0.1	-0.08	inactive
ANXA3 (GeneID 306)	1	0.44	0.88	0.07	0.37	inactive
ASB9 (GeneID 140462)	1	1.34	0.9	1.64	1.48	inactive
EDEM1 (GeneID 9695)	1	0.04	0.27	-0.19	0.03	inactive
LINC00242 (GeneID 401288)	1	0.18	0.61	-0.25	0.18	inactive
LPCAT4 (GeneID 254531)	1	0.08	0.29	-0.29	0.23	inactive
WFIKKN2 (GeneID 124857)	1	-1.07	-1.39	-1.2	-0.63	inactive
C9orf50 (GeneID 375759)	1	1.89	1.95	1.7	2.03	inactive
HECTD4 (GeneID 283450)	1	0.52	0.67	0.43	0.46	inactive
HECTD4 (GeneID 283450)	2	0.55	0.74	0.57	0.33	inactive
GLRB (GeneID 2743)	1	0.7	0.68	0.7	0.72	inactive
LOC391343 (retired record) (GeneID 391343)	1	-0.5	-0.51	-0.58	-0.42	inactive
LOC400968 (retired record) (GeneID 400968)	1	-2.03	-1.77	-1.87	-2.46	inactive

5 entries from above, sorted by “mean z-score”, low to high:
gene	pool no.	mean z-score	z-score, replicate A	z-score, replicate B	z-score, replicate C	outcome
ANXA4 (GeneID 307)	1	-0.94	-1.25	-0.75	-0.83	inactive
CCL20 (GeneID 6364)	1	0.72	0.68	0.7	0.76	inactive
MSANTD3 (GeneID 91283)	1	0.94	1.05	1.1	0.66	inactive
OCIAD1 (GeneID 54940)	1	1.09	1.17	1.06	1.03	inactive
GADD45A (GeneID 1647)	1	2.38	2.39	2.34	2.4	active
